Compound potency records, mixed from different reports. Data source: NIAID ChemDB in PubChem.

Shared fields: whole-cell or culture tests; organism: Herpes simplex virus 1

a–b is a range or a potency band. An empty or dashed field is not shown. ECn: concentration that inhibits the pathogen or its effect by n%. Rows are shuffled and stem from different studies.

NC(=O)c1cn([C@@H]2C[C@H](CCP(=O)(O)O)C[C@H]2O)nn1 ; cells: VERO ; read by: plaque count ; measure: EC50 ; strain or isolate: F ; result: >100 µM
CCSc1nsc(-c2ccccc2)c1C#N ; cells: VERO ; read by: plaque count ; measure: EC50 ; strain or isolate: F ; result: >100 µg/mL
NCC(O)c1ccc(O)c(O)c1 ; cells: HeLa ; read by: cytopathic effect ; measure: EC50 ; strain or isolate: KOS ; result: >200 µg/mL
CSc1nc(Cl)c([N+](=O)[O-])c(N2CC[N+]3(CC2)CC[N+]2(CCN(c4nc(SC)nc(Cl)c4[N+](=O)[O-])CC2)CC3)n1 ; cells: GMK ; read by: cytopathic effect ; measure: EC50 ; result: 3.49 µg/mL
Nc1nc2c(ncn2CC(CO)OCP(=O)(O)O)c(=O)[nH]1 ; cells: Primary rabbit kidney cells ; read by: cytopathic effect ; measure: EC50 ; strain or isolate: (TK-) 2 strains ; result: 7 µg/mL
O=C(O)CP(=O)(O)O ; cells: HEL ; read by: cytopathic effect ; measure: EC50 ; strain or isolate: KOS PMEDAP-resistant ; result: 72.7 µg/mL
CC(=O)N[C@H]1[C@@H](O[C@@H]2O[C@H](C[C@@H](O)[C@H]3O[C@@H](n4ccc(=O)[nH]c4=O)[C@H](O)[C@@H]3O)[C@H](O)[C@H](O)[C@H]2NC(=O)/C=C/CC(C)C)O[C@H](CO)[C@@H](O)[C@@H]1O ; cells: BSC-1 ; read by: plaque count ; measure: EC50 ; result: <0.5 µg/mL
Nc1nccc2c1ncn2[C@@H]1O[C@H](CO)[C@@H](O)[C@H]1O ; cells: PRK ; read by: cytopathic effect ; measure: EC50 ; strain or isolate: KOS F McIntyre ; result: ≥40 µg/mL
NC(=O)c1nnn([C@@H]2C[C@H](CO)C[C@H]2O)c1N ; cells: VERO ; read by: plaque count ; measure: EC50 ; strain or isolate: F ; result: >100 µM
Cc1ccc(OP(=O)(O)C(=O)O)cc1 ; cells: VERO ; read by: plaque count ; measure: EC50 ; result: 3 µM
Nc1nc2c(ncn2CCC(CO)CO)c(=O)[nH]1 ; measure: EC50 ; result: 0.1–1 µM
O=C(Oc1ccccc1)P(=O)(O)Oc1ccccc1 ; cells: VERO ; read by: plaque count ; measure: EC50 ; result: 15 µM
Nc1nc2c(ncn2CCC(CO)COP2(=O)OCc3ccccc3O2)c(=O)[nH]1 ; cells: VERO ; read by: cytopathic effect ; measure: EC50 ; strain or isolate: B2006 (TK-) ; result: 108 µM
Nc1nc(N)c2ncn(CCOCP(=O)(O)O)c2n1 ; cells: HEL ; read by: cytopathic effect ; measure: EC50 ; strain or isolate: KOS BVDU-resistant ; result: 6.8 µg/mL
NC1=Nc2c(ncn2CCC/C=C/P(=O)(O)O)C(=O)C1 ; cells: VERO ; read by: cytopathic effect ; measure: EC50 ; result: ≥250 µM
COC(=O)c1c(SC)nsc1-c1ccccc1 ; cells: VERO ; read by: plaque count ; measure: EC50 ; strain or isolate: F ; result: >100 µg/mL
O=[N+]([O-])c1c(Cl)ncnc1NN1CC[N+]2(CC1)CC[N+]1(CCN(Nc3ncnc(Cl)c3[N+](=O)[O-])CC1)CC2 ; cells: GMK ; read by: cytopathic effect ; measure: EC50 ; result: 7.71 µg/mL
N#Cc1c(SCCO)nsc1-c1ccccc1 ; cells: VERO ; read by: plaque count ; measure: EC50 ; strain or isolate: F ; result: >5 µg/mL
Nc1ncnc2c1ncn2CCOCP(=O)(O)O ; cells: VERO ; measure: EC50 ; result: 8 µM
O=c1ccn(CC(CO)OCP(=O)(O)O)c(=O)[nH]1 ; cells: Primary rabbit kidney cells ; read by: cytopathic effect ; measure: EC50 ; strain or isolate: 3 strains ; result: >400 µg/mL
CCC1OC(=O)C(C)CC(C)C(OC2OCCCC2O)C(C)C(=O)/C=C/C1(C)O ; cells: HeLa ; read by: cytopathic effect ; measure: EC50 ; strain or isolate: KOS ; result: >100 µg/mL
C=CCCc1cn([C@@H]2O[C@H](CO)[C@@H](O)[C@@H]2O)c(=O)[nH]c1=O ; cells: HELF ; read by: cytopathic effect ; measure: EC50 ; strain or isolate: VR-3 ; result: 32 µg/mL
Nc1nc2c(ncn2CCC(CO)CO)c(=O)[nH]1 ; cells: HEL ; read by: cytopathic effect ; measure: EC50 ; strain or isolate: KOS GCV-resistant ; result: >20 µg/mL
Cc1cc(=O)c2c(O)c3c(O)cc(O)c4c5c(O)cc(O)c6c(O)c7c(=O)cc(C)c8c1c2c(c34)c(c65)c78 ; cells: BSC-1 ; read by: cytopathic effect ; measure: EC50 ; strain or isolate: MAYO 1814 ; result: 20 µg/mL
Nc1ncnc2c1ncn2[C@@H]1O[C@H](CC(N)CC[C@H](N)C(=O)O)[C@@H](O)[C@H]1O ; cells: HeLa ; read by: cytopathic effect ; measure: EC50 ; strain or isolate: KOS ; result: >200 µg/mL
CSc1nsc(-c2ccccc2)c1C(N)=O ; cells: VERO ; read by: plaque count ; measure: EC50 ; strain or isolate: F ; result: >250 µg/mL
COc1cc2c(cc1CO)CC[C@H]1C(C)(CO)[C@H](O)CC[C@]21C ; cells: VERO ; read by: plaque count ; measure: EC50 ; result: 100 µM
COP(=O)(O)C(=O)O ; cells: VERO ; read by: plaque count ; measure: EC50 ; result: >500 µM
CO[C@@H]1[C@@H](O[C@@H]2O[C@H](C)[C@@H](O[C@H]3C[C@@](C)(O)[C@@H](OC(=O)CC(C)C)[C@H](C)O3)[C@H](N(C)C)[C@H]2O)[C@@H](CC=O)C[C@@H](C)[C@@H](O)/C=C/C=C/C[C@@H](C)OC(=O)C[C@H]1OC(C)=O ; cells: HeLa ; read by: cytopathic effect ; measure: EC50 ; strain or isolate: KOS ; result: >200 µg/mL
Cc1cccc2c1OP(=O)(OCCOCn1cnc3c(=O)[nH]c(N)nc31)OC2 ; cells: VERO ; read by: cytopathic effect ; measure: EC50 ; strain or isolate: B2006 (TK-) ; result: 0.51 µM
CC(=O)N[C@@H](C=O)[C@@H](O)[C@H](O)[C@H](O)C(=O)O ; cells: HeLa ; read by: cytopathic effect ; measure: EC50 ; strain or isolate: KOS ; result: >200 µg/mL
CCOC(=O)P(=O)(O)O ; cells: VERO ; read by: plaque count ; measure: EC50 ; result: >500 µM
COC(=O)c1cn([C@@H]2C[C@H](CCP(=O)(O)O)C[C@H]2O)nn1 ; cells: VERO ; read by: plaque count ; measure: EC90 ; strain or isolate: F ; result: >100 µM
Cc1cn([C@@H]2O[C@H](CO)[C@@H](O)[C@@H]2O)c(=O)[nH]c1=O ; cells: HEL ; read by: cytopathic effect ; measure: EC50 ; strain or isolate: KOS GCV-resistant ; result: 20 µg/mL
C/C=C1\[C@H](OC2O[C@H](CO)[C@@H](O)[C@H](O)[C@H]2O)OC=C(C(=O)O)[C@H]1CC(=O)OCCc1ccc(O)cc1 ; cells: VERO ; read by: cytopathic effect ; measure: EC50 ; strain or isolate: 15577 ; result: >250 µM
O=c1[nH]c(=O)n([C@H]2C[C@H](O)[C@@H](CO)O2)cc1/C=C/Br ; cells: HEL ; read by: cytopathic effect ; measure: EC50 ; strain or isolate: KOS S2242-resistant ; result: 0.005 µg/mL
Nc1ncnc2c1ncn2CCOCP(=O)(O)O ; cells: Primary rabbit kidney cells ; read by: cytopathic effect ; measure: EC50 ; strain or isolate: (TK-) 2 strains ; result: 7 µg/mL
Nc1nc2c(ncn2COCCO)c(=O)[nH]1 ; cells: VERO ; read by: plaque count ; measure: EC50 ; strain or isolate: 1F ; result: 2.1 µg/mL
NC(=O)c1nnn([C@@H]2C[C@H](CCP(=O)(O)O)C[C@H]2O)c1N ; cells: VERO ; read by: plaque count ; measure: EC90 ; strain or isolate: F ; result: >100 µM
Nc1nc2ncn(COCCCl)c2c(=O)[nH]1 ; cells: VERO ; read by: cytopathic effect ; measure: EC50 ; strain or isolate: KOS ; result: >128 µg/mL
CCCSc1nsc(-c2ccccc2)c1C(=O)OC ; cells: VERO ; read by: plaque count ; measure: EC50 ; strain or isolate: F ; result: >50 µg/mL
CO[C@H]1[C@@H](OC(=O)/C=C/C=C/C=C/C=C/C(=O)O)CC[C@@]2(CO2)[C@@H]1[C@@]1(C)O[C@@H]1CC=C(C)C ; cells: HeLa ; read by: cytopathic effect ; measure: EC50 ; strain or isolate: KOS ; result: >200 µg/mL
O=C(O)P(=O)(O)O ; cells: SIRC ; read by: plaque count ; measure: EC50 ; strain or isolate: KJ502 ; result: <100 µM
CC(=O)OC[C@]12CCC(C)=C[C@H]1O[C@@H]1[C@H](O)[C@@H](OC(C)=O)[C@@]2(C)[C@@]12CO2 ; cells: HeLa ; read by: cytopathic effect ; measure: EC50 ; strain or isolate: KOS ; result: >200 µg/mL
Nc1nc2c(ncn2C[C@]2(CO)C[C@H]2CO)c(=O)[nH]1 ; measure: EC50 ; result: 0.01–0.1 µM
NC1=Nc2c(ncn2CCCCC(F)(F)P(=O)(O)O)C(=O)C1 ; cells: VERO ; read by: cytopathic effect ; measure: EC50 ; result: >250 µM
Cc1nc(N2CC[N+]3(CC2)CC[N+]2(CCN(c4nc(C)nc5c4no[n+]5[O-])CC2)CC3)c2c(no[n+]2[O-])n1 ; cells: GMK ; read by: cytopathic effect ; measure: EC50 ; result: 51.77 µg/mL
C/C=C1\[C@H](OC2O[C@H](CO)[C@@H](O)[C@H](O)[C@H]2O)OC=C(C(=O)O)[C@H]1CC(=O)OCC(OCC)c1ccc(O)c(O)c1 ; cells: VERO ; read by: cytopathic effect ; measure: EC50 ; strain or isolate: 15577 ; result: >200 µM
N#Cc1c(SCCCCBr)nsc1-c1ccccc1 ; cells: VERO ; read by: plaque count ; measure: EC50 ; strain or isolate: F ; result: >25 µg/mL
COc1ncnc(N2CC[N+]3(CC2)CC[N+]2(CCN(c4ncnc(OC)c4[N+](=O)[O-])CC2)CC3)c1[N+](=O)[O-] ; cells: GMK ; read by: cytopathic effect ; measure: EC50 ; result: 35.83 µg/mL
Nc1nc2c(ncn2COCCOP2(=O)OCc3ccccc3O2)c(=O)[nH]1 ; cells: VERO ; read by: cytopathic effect ; measure: EC50 ; strain or isolate: B2006 (TK-) ; result: 1.62 µM
O=c1c2ccccc2[se]n1CC(O)C(O)C(O)C(O)CO ; measure: MIC ; result: 27.6 µM
CNCC1=CC[C@@H](N)[C@@H](O[C@H]2[C@H](O)[C@@H](O[C@H]3OC[C@](C)(O)[C@H](NC)[C@H]3O)[C@H](N)C[C@@H]2N)O1 ; cells: HeLa ; read by: cytopathic effect ; measure: EC50 ; strain or isolate: KOS ; result: >200 µg/mL
Cc1cn(CCC(CO)CO)c(=O)[nH]c1=O ; cells: VERO ; read by: cytopathic effect ; measure: EC50 ; strain or isolate: KUPKA ; result: >593 µM

Again, the opening 7 rows:

structure | cells | read by | measure | strain or isolate | result
NC(=O)c1cn([C@@H]2C[C@H](CCP(=O)(O)O)C[C@H]2O)nn1 | VERO | plaque count | EC50 | F | >100 µM
CCSc1nsc(-c2ccccc2)c1C#N | VERO | plaque count | EC50 | F | >100 µg/mL
NCC(O)c1ccc(O)c(O)c1 | HeLa | cytopathic effect | EC50 | KOS | >200 µg/mL
CSc1nc(Cl)c([N+](=O)[O-])c(N2CC[N+]3(CC2)CC[N+]2(CCN(c4nc(SC)nc(Cl)c4[N+](=O)[O-])CC2)CC3)n1 | GMK | cytopathic effect | EC50 |  | 3.49 µg/mL
Nc1nc2c(ncn2CC(CO)OCP(=O)(O)O)c(=O)[nH]1 | Primary rabbit kidney cells | cytopathic effect | EC50 | (TK-) 2 strains | 7 µg/mL
O=C(O)CP(=O)(O)O | HEL | cytopathic effect | EC50 | KOS PMEDAP-resistant | 72.7 µg/mL
CC(=O)N[C@H]1[C@@H](O[C@@H]2O[C@H](C[C@@H](O)[C@H]3O[C@@H](n4ccc(=O)[nH]c4=O)[C@H](O)[C@@H]3O)[C@H](O)[C@H](O)[C@H]2NC(=O)/C=C/CC(C)C)O[C@H](CO)[C@@H](O)[C@@H]1O | BSC-1 | plaque count | EC50 |  | <0.5 µg/mL